# Test results taken from article PMC5650617.
# The exact form of at least one protein or probe is not confirmed.
# Molecular target: IscR::His6 (Klebsiella pneumoniae CG43 (CG43S3)) (UniProt A6TCF2)
# Test: EMSA
# Conditions: holo ([2Fe-2S]) form, weaker than PgalF-1; box #2 deleted; EMSA: 5 ng DNA, room temperature, 30 min, 5% non-denaturing PAGE, SYBR Green I stain; salt and pH not given (as in Wu et al., 2014); recombinant protein; probe letters rebuilt from the primers and the genome
sequence,measurement,value
GCAATAGCAACATTCTGATTGGGTTAATCAGATGTTTTTATGAGCGTTTGATGTTATTGACTATCTTTGCAGCCAGATTGATATGTATAAACTTGGAATTTGATATTGTATTTCCTGTAATCAAGAGTTTCGAATTTTGGTCATGACAAAAACGACAACGGCCTCCAAGCTGGAGACCGGTCGAAGGATAAAATGAGAGAACGATCGTCGATCACGCCCCATTTGTAGGATCTATAGTGCCAGTAGCGGTGAGGTTTTTCCAGGCAAATATTGAGGA (double strand) [PmrkHI-2],binding result,binds
